Experimental data reported in patent publication US20240109955A1.

B1: MX1047 (bispecific antibody)
chain 1: DTVMTQSPLSLPVTPGEPASISCRSSQSLLNSNGYNYLDWYVQKPGQSPQLLIYLGSNRASGVPDRFSGSGSGTDFTLKISRVEAEDVGVYYCMQPLQTPLFTFGPGTKVEIKGGSSGEIVLTQSPGTLSLSPGERATLSCRASQSVSSSYLAWYQQKPGQAPRLLIYSASSRATGIPDRFSGSGSGTDFTLTISRLEPEDFAVYFCQQYVGLTGWTFGQGTKVEIKGGGGSGGSGSGGGGSASGSGQMQLVQSGPEVKKPGTSVKVSCKASGFTFTSSAVQWVRQRQRLEWIGWIVVGSGNTNYAQKFQERVTITRDMSTSTAYMELSSLRSEDTAVYYCAAPNCSNVVCYDGFDIWGQGTMVTVSSGGSSGQVTLRESGPALVKPTQTLTLTCTFSGFSLSTRGVCVSWIRQPPGKALEWLAFIDWDDDKYYNTSLKTRLTISKDTSKNQVVLTMTNVHPVDTATYYCARISSHHGSSWCTTFDYWGQGALVTVSAASGGSGDKTHTCPPCPAPELLGGPSVFLFPPKPKDTLMISRTPEVTCVVVDVSHEDPEVKFNWYVDGVEVHNAKTKPREEQYNSYVVSVLTVLHQDWLNGKEYKCKVSNKALPAPIEKTISKAKGQPREPQVYTLPPSRDELTKNQVSLTCLVKGFYPSDIAVEWESNGQPENNYKTTPPVLDSDGSFFKKLTVDKSRWQQGNVFSCSVLHEALHSHYTQKSLSLSPG
chain 2: EIVLTQSPGTLSLSPGERATLSCRASQSVSSSYLAWYQQKPGQAPRLLIYSASSRATGIPDRFSGSGSGTDFTLTISRLEPEDFAVYFCQQYVGLTGWTFGQGTKVEIKGGSSGQTVVTQEPSFSVSPGGTVTLTCGLSSGSVSTAYFPSWYQQTPGQAPRTLIYGTNTRSSGVPDRFSGSILGNKAALTITGAQADDESDYYCVLYMGRGIVVFGGGTKLTVLGGGGSGGSGSGGGGSASGSGQVQLVESGGGVVQPGRSLRLSCAASGFTLSSYGMHWVRQAPGKGLEWVAVISYDGSNKYYVDSVKGRFTISRDNSKNTLYLQMNSLRAEDTAVYYCRWAYWELLPDYYYGMDVWGQGTTVTVSSGGSSGQMQLVQSGPEVKKPGTSVKVSCKASGFTFTSSAVQWVRQRQRLEWIGWIVVGSGNTNYAQKFQERVTITRDMSTSTAYMELSSLRSEDTAVYYCAAPNCSNVVCYDGFDIWGQGTMVTVSSASGGSGDKTHTCPPCPAPELLGGPSVFLFPPKPKDTLMISRTPEVTCVVVDVSHEDPEVKFNWYVDGVEVHNAKTKPREEQYNSYVVSVLTVLHQDWLNGKEYKCKVSNKALPAPIEKTISKAKGQPREPQVYTLPPSRDELTKNQVSLTCLVKGFYPSDIAVEWESNGQPENNYKTTPPVLDSDGSFFKKLTVDKSRWQQGNVFSCSVLHEALHSHYTQKSLSLSPG
B2: MX1049 (bispecific antibody)
chain: EIVLTQSPGTLSLSPGERATLSCRASQSVSSSYLAWYQQKPGQAPRLLIYSASSRATGIPDRFSGSGSGTDFTLTISRLEPEDFAVYFCQQYVGLTGWTFGQGTKVEIKGGSSGDTVMTQSPLSLPVTPGEPASISCRSSQSLLNSNGYNYLDWYVQKPGQSPQLLIYLGSNRASGVPDRFSGSGSGTDFTLKISRVEAEDVGVYYCMQPLQTPLFTFGPGTKVEIKGGGGSGGSGSGGGGSASGSGQVTLRESGPALVKPTQTLTLTCTFSGFSLSTRGVCVSWIRQPPGKALEWLAFIDWDDDKYYNTSLKTRLTISKDTSKNQVVLTMTNVHPVDTATYYCARISSHHGSSWCTTFDYWGQGALVTVSAGGSSGQMQLVQSGPEVKKPGTSVKVSCKASGFTFTSSAVQWVRQRQRLEWIGWIVVGSGNTNYAQKFQERVTITRDMSTSTAYMELSSLRSEDTAVYYCAAPNCSNVVCYDGFDIWGQGTMVTVSSASGGSGDKTHTCPPCPAPELLGGPSVFLFPPKPKDTLMISRTPEVTCVVVDVSHEDPEVKFNWYVDGVEVHNAKTKPREEQYNSYVVSVLTVLHQDWLNGKEYKCKVSNKALPAPIEKTISKAKGQPREPQVYTLPPSRDELTKNQVSLTCLVKGFYPSDIAVEWESNGQPENNYKTTPPVLDSDGSFFKKLTVDKSRWQQGNVFSCSVLHEALHSHYTQKSLSLSPG

Tests used:
[1] = biological target: SARS-CoV-2 Omicron variant BA.4.6 spike protein (SARS-CoV-2), P0DTC2; assay: cell-based or functional assay
[2] = biological target: SARS-CoV-2 Omicron variant BF.7 spike protein (SARS-CoV-2), P0DTC2; assay: cell-based or functional assay

| Binder | IC50 (pseudovirus neutralization) [1] [ng/mL] | IC80 (pseudovirus neutralization) [1] [ng/mL] | IC50 (pseudovirus neutralization) [2] [ng/mL] | IC80 (pseudovirus neutralization) [2] [ng/mL] |
| --- | --- | --- | --- | --- |
| B1 | 7.11 | 17.2 | 4.37 | 19.3 |
| B2 | 5.19 | 20.4 | 4.68 | 19.9 |
